The data set concerns A549, CT26 and 2H11 cells. Description: Time-dependent cellular uptake (cell line not told apart). The class given is cell-based.

This is an account of results in article PMC5634595, “Properties of halogenated and sulfonated porphyrins relevant for the selection of photosensitizers in anticancer and antimicrobial therapies” (PLoS ONE, 2017).

Structures are written as SMILES.

Take `CCNS(=O)(=O)c1ccc(Cl)c(-c2c3nc(c(-c4c(Cl)ccc(S(=O)(=O)NCC)c4Cl)c4ccc([nH]4)c(-c4c(Cl)ccc(S(=O)(=O)NCC)c4Cl)c4nc(c(-c5c(Cl)ccc(S(=O)(=O)NCC)c5Cl)c5ccc2[nH]5)C=C4)C=C3)c1Cl` [Cl2PEt, 5,10,15,20-tetrakis(2,6-dichloro-3-N-ethylsulfamoylphenyl)porphyrin]: for the setting “PS in L121 micelles”, the “Incubation time after which uptake stabilizes” value lay within 4 to 6 h. The “Incubation time over which accumulation continues to increase” value (from serum-DMSO medium, without polymer) turned out to be 20 h.
